Experimental data published in the CheMixHub viscosity set.
± gives the uncertainty stated by the source.

Assay: xn = mol fraction of the nth substance listed
Conditions: 101.33 kPa, x1 = 0.1918

For `OCCOCCOCCOCCO` + O, which viscosity (303.15 K) is on record?
Its viscosity is 13.82 ± 0.14 mPa·s.

What about the viscosity (308.15 K) of the same compound?
The viscosity was 11.04 ± 0.12 mPa·s.
